Data source: PubChem BioAssay AID504761 (Drosophila RNAi Screening Center, 2011)

- Screen: 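Fly genes whose silencing reduces dengue virus type 2 infection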 (primary screen)
- Cell system: D.Mel-2 cells from Drosophila
- Knock-down reagent: long dsRNA against Drosophila genes
- Conditions: infection with dengue virus type 2; dose and infection time not stated
- Detection: 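Cells stained for dengue envelope protein and imaged; percent of infected cells per well on duplicate plates, ranked by infection, with stained nuclei counted for cell number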
- Reading the numbers: infection score: higher = more virus-infected cells; cell count: higher = more cells in the well
- Active means: 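Low infection ranks in the two replicates (chance level up to 0.065) followed by a retest with a 1.5-fold or larger significant decrease, p below 0.05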
- Meaning of the calls: active = confirmed: knock-down lowers infection; inactive = not picked or not confirmed
The deposit covers about 22,000 reagents; this is a random part of those that have a named target and a result. Of all reagents, 116 (0.52%) were called active. 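Calls depend on retest data that are not deposited; infection was ranked per plate without normalising between plates; the unit of the infection score is not given.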 Raw values are not corrected between plates. Unmarked entries are inactive. Names joined by + are all predicted targets of the reagent. Not all columns of the deposit are shown. The record does not give: the amount of reagent, the time to read-out.

Knock-down of CG11638 [DRSC18167] gave: infection score, replicate 1 = 7.33; cell count, replicate 1 = 4377.
Against CG11638 [DRSC18640], the values are infection score, replicate 1 = 3.42; cell count, replicate 1 = 5031.
With knock-down of Alg2 [DRSC08298] the results were infection score, replicate 1 = 8.03; cell count, replicate 1 = 6715.
Silencing of Pp1alpha-96A [DRSC16795] came out at: infection score, replicate 1 = 2.02; cell count, replicate 1 = 7223.
After knock-down of Pp1alpha-96A [DRSC23320], the screen gave infection score, replicate 1 = 0.78; cell count, replicate 1 = 5733.
Depletion of Pp1alpha-96A [DRSC25667] came out at: infection score, replicate 1 = 3.86; cell count, replicate 1 = 5849.
Scm [DRSC16853] scored infection score, replicate 1 = 4.6; cell count, replicate 1 = 6061.
Silencing of CG16976 (retired record) [DRSC08499] resulted in: infection score, replicate 1 = 2.56; cell count, replicate 1 = 5986.
Knock-down of CG16976 (retired record) [DRSC25709] came out at: infection score, replicate 1 = 3.34; cell count, replicate 1 = 6018.
With knock-down of Arr1 [DRSC01867], the screen gave infection score, replicate 1 = 1.5; cell count, replicate 1 = 4605.
For CG7639 [DRSC07026] the deposit lists infection score, replicate 1 = 8.55; cell count, replicate 1 = 6421.
For CG7794 [DRSC16313] the deposit lists infection score, replicate 1 = 8.97; cell count, replicate 1 = 6920.
Depletion of Cyp12d1-d + Cyp12d1-p [DRSC21507] came out at: infection score, replicate 1 = 2.59; cell count, replicate 1 = 6065.
Silencing of Cyp12d1-d + Cyp12d1-p [DRSC27261] came out at: infection score, replicate 1 = 12.5; cell count, replicate 1 = 6660.

Ordered by “cell count, replicate 1” (lowest first): 2 of the entries above.
CG16976 (retired record) [DRSC08499] → infection score, replicate 1: 2.56; cell count, replicate 1: 5986
Scm [DRSC16853] → infection score, replicate 1: 4.6; cell count, replicate 1: 6061
